Results of unrelated studies side by side (data: NIAID ChemDB).

All rows: growth or infection tests

Conditions beyond the fields shown may differ between rows.

{"structure": "Cc1ccc(COc2ccc(-c3n[nH]c(C(F)(F)F)c3-c3cccc4ccccc34)c(O)c2)cc1", "species": "Mycobacterium marinum", "read by": "visual reading", "read-out": "MIC", "result": ">50 µg/mL"}
{"structure": "CO[C@H]1/C=C/O[C@@]2(C)Oc3c(C)c(O)c4c(O)c(c(/C=N/N5CCN(C6CCCC6)CC5)c(O)c4c3C2=O)NC(=O)/C(C)=C\\C=C\\[C@H](C)[C@H](O)[C@@H](C)[C@@H](O)[C@@H](C)[C@H](OC(C)=O)[C@@H]1C", "species": "Mycobacterium avium intracellulare", "strain": "23-Feb", "read-out": "MIC", "result": "0.125 µg/mL"}
{"structure": "C[C@@H](O)[C@H]1C(=O)N2C(C(=O)O)=C(SCCN=CN)C[C@H]12", "species": "Mycobacterium fortuitum", "strain": "1049", "read-out": "MIC", "result": "6.25 µg/mL"}
{"structure": "[2H]c1c(C([2H])([2H])[2H])c([2H])n2c(C(=O)NCc3ccc(-c4ccc(C(F)(F)F)cc4)cc3)c(C)nc2c1[2H]", "species": "Mycobacterium avium", "read by": "fluorescence", "read-out": "inhibition", "tested at": "0.0028 µM", "result": "85%"}
{"structure": "CO[C@@]1(NC(=O)Cc2ccccc2)C(=O)N2C(C(=O)O)=C(COC(C)=O)CSC21", "species": "Mycobacterium fortuitum", "strain": "1048", "read-out": "MIC", "result": "25 µg/mL"}
{"structure": "OB1OC(N2CCOCC2)c2ccccc21", "species": "Mycobacterium luteum", "read by": "turbidity", "read-out": "MBC", "result": "125 µg/mL"}
{"structure": "CO[C@@]1(NC(=O)Cn2cnnn2)C(=O)N2C(C(=O)O)=C(CSc3nnc(C)s3)CSC21", "species": "Mycobacterium fortuitum", "strain": "1045", "read-out": "MIC", "result": ">100 µg/mL"}
{"structure": "Cc1nc2ccccn2c1C(=O)NCc1ccc(-c2ccccc2)cc1", "species": "Mycobacterium ulcerans", "read by": "fluorescence", "read-out": "MIC50", "result": "0.1–1 µg/mL"}
{"structure": "Fc1cc(F)c(B2Oc3ccccc3O2)c(F)c1", "species": "Mycobacterium luteum", "read by": "turbidity", "read-out": "MBC", "result": "250 µg/mL"}
{"structure": "CC[C@H]1OC(=O)[C@H](C)[C@@H](O[C@H]2C[C@@](C)(OC)[C@@H](O)[C@H](C)O2)[C@H](C)[C@@H](O[C@@H]2O[C@H](C)C[C@H](N(C)C)[C@H]2O)[C@](C)(OC)C[C@@H](C)C(=O)[C@H](C)[C@@H](O)[C@]1(C)O", "species": "Mycobacterium avium complex", "strain": "N-978 (HIV+)", "read-out": "MIC", "result": "2 µg/mL"}
{"structure": "CO[C@@]1(NC(=O)Cc2cccs2)C(=O)N2C(C(=O)O)=C(COC(N)=O)CS[C@@H]21", "species": "Mycobacterium fortuitum", "strain": "1048", "read-out": "MIC", "result": "12.5 µg/mL"}
{"structure": "Cc1cn2c(C(=O)NCc3ccc(N4CCN(c5ccc(OC(F)(F)F)cc5)[C@@H](C)C4)c(Cl)c3)c(C)nc2s1.Cl", "species": "Mycobacterium avium", "read by": "fluorescence", "read-out": "inhibition", "tested at": "0.061 µM", "result": "85%"}
{"structure": "COc1ccc(-c2n[nH]c(C(F)(F)F)c2-c2ccc(OC)c(OC)c2)c(O)c1", "species": "Mycobacterium marinum", "read by": "visual reading", "read-out": "MIC", "result": ">50 µg/mL"}
{"structure": "CCOc1ccc(N2CCN(c3ccc(CNC(=O)c4c(CC)nc5cc(F)ccn45)cc3F)C[C@@H]2C)cc1.Cl", "species": "Mycobacterium avium", "read by": "fluorescence", "read-out": "inhibition", "tested at": "0.0071 µM", "result": "85%"}
{"structure": "CCOc1ccc(-c2n[nH]c(C(F)(F)F)c2-c2ccc(Cl)cc2)c(O)c1", "species": "Mycobacterium marinum", "read by": "visual reading", "read-out": "MIC", "result": "50 µg/mL"}
{"structure": "C[C@@H]1CN(c2c(F)c(N)c3c(=O)c(C(=O)O)cn(C4CC4)c3c2F)C[C@H](C)N1", "species": "Mycobacterium avium complex", "strain": "N-961 (HIV+)", "read-out": "MIC", "result": "1 µg/mL"}
{"structure": "CO[C@@]1(NC(=O)CCCC(N)C(=O)O)C(=O)N2C(C(=O)O)=C(COC(C)=O)CSC21", "species": "Mycobacterium fortuitum", "strain": "1049", "read-out": "MIC", "result": ">100 µg/mL"}
{"structure": "O=C(NCc1cccs1)c1c(Cl)nc2ccccn12", "species": "Mycobacterium ulcerans", "read by": "fluorescence", "read-out": "MIC50", "result": "0.1–1 µg/mL"}
{"structure": "CCOc1ccc(N2CCC(c3ccc(CNC(=O)c4c(CC)nc5ccc(Cl)cn45)c(F)c3)CC2)cc1.Cl", "species": "Mycobacterium avium", "read by": "fluorescence", "read-out": "inhibition", "tested at": "0.023 µM", "result": "85%"}
{"structure": "Cc1nc2ccc(Br)cn2c1C(=O)NCc1ccc(OC(F)(F)F)cc1", "species": "Mycobacterium ulcerans", "read by": "fluorescence", "read-out": "MIC50", "result": "0.1–1 µg/mL"}
{"structure": "NNC(=O)c1ccncc1", "species": "Mycobacterium avium complex", "strain": "N-238 (HIV-)", "read-out": "MIC", "result": "4 µg/mL"}
{"structure": "CCc1nc2cc(F)ccn2c1C(=O)NCc1ccc(N2CCN(c3ccc(OC(F)(F)C(F)(F)F)cc3)[C@@H](C)C2)c(F)c1.Cl", "species": "Mycobacterium avium", "read by": "fluorescence", "read-out": "inhibition", "tested at": "0.003 µM", "result": "85%"}
{"structure": "COc1ccccc1-c1c(-c2ccc(O)cc2O)n[nH]c1C(F)(F)F", "species": "Mycobacterium marinum", "read by": "visual reading", "read-out": "MIC", "result": ">50 µg/mL"}
{"structure": "Cc1nc2ccc(F)cn2c1C(=O)NCc1ccc(N2CCN(c3ccc(OC(F)(F)F)cc3)[C@H](C)C2)c(F)c1.Cl", "species": "Mycobacterium avium", "read by": "fluorescence", "read-out": "inhibition", "tested at": "0.038 µM", "result": "85%"}
{"structure": "Oc1ccc(-c2n[nH]c(C(F)(F)F)c2-c2ccc(Br)cc2)c(O)c1", "species": "Mycobacterium marinum", "read by": "visual reading", "read-out": "MIC", "result": ">50 µg/mL"}
{"structure": "OB1OC(N2CCCCC2)c2ccccc21", "species": "Mycobacterium luteum", "read by": "turbidity", "read-out": "MIC", "result": "1.9 µg/mL"}
{"structure": "CCc1nc2cc(C)c(Cl)cn2c1C(=O)NCc1ccc(N2CCN(c3ccc(OC(F)(F)F)cc3)[C@@H](C)C2)c(F)c1", "species": "Mycobacterium avium", "read by": "fluorescence", "read-out": "inhibition", "tested at": "0.035 µM", "result": "85%"}
{"structure": "Cc1nc2ccccn2c1C(=O)NCc1ccc2c(c1)OCO2", "species": "Mycobacterium ulcerans", "read by": "fluorescence", "read-out": "MIC50", "result": "0.1–1 µg/mL"}
{"structure": "OB1OCc2cc(F)ccc21", "species": "Mycobacterium luteum", "read by": "turbidity", "read-out": "MBC", "result": "3.9 µg/mL"}
{"structure": "CO[C@H]1/C=C/O[C@@]2(C)Oc3c(C)c(O)c4c(O)c(c5c(c4c3C2=O)NC2(CCN(CC(C)C)CC2)N=5)=NC(=O)/C(C)=C\\C=C\\[C@H](C)[C@H](O)[C@@H](C)[C@@H](O)[C@@H](C)[C@H](OC(C)=O)[C@@H]1C", "species": "Mycobacterium avium complex", "strain": "N-945 (HIV+)", "read-out": "MIC", "result": "0.125 µg/mL"}
{"structure": "Cc1cn2c(C(=O)NCc3ccc(N4CCN(c5ccc(C(F)(F)F)cn5)CC4)c(C(F)(F)F)c3)c(C)nc2cc1Cl", "species": "Mycobacterium avium", "read by": "fluorescence", "read-out": "inhibition", "tested at": "0.59 µM", "result": "85%"}

A second listing of 3 rows from above:

structure,species,strain,read by,read-out,tested at,result
O=C(NCc1cccs1)c1c(Cl)nc2ccccn12,Mycobacterium ulcerans,,fluorescence,MIC50,,0.1–1 µg/mL
Cc1ccc(COc2ccc(-c3n[nH]c(C(F)(F)F)c3-c3cccc4ccccc34)c(O)c2)cc1,Mycobacterium marinum,,visual reading,MIC,,>50 µg/mL
Cc1nc2ccccn2c1C(=O)NCc1ccc2c(c1)OCO2,Mycobacterium ulcerans,,fluorescence,MIC50,,0.1–1 µg/mL

An empty or dashed field is not shown. A number after MIC or MFC names an inhibition level or a share of isolates. Inhibition is in % at the dose shown (toxicity tests: loss of growth or viability). Two numbers with a dash give a range or band.